Tests used:
[1] = tested on: Plasmodium falciparum 3D7 (chloroquine-sensitive); assay: In vitro drug susceptibility assay, 3D7 strain (flow cytometry, SYBR Green I / MitoTracker Deep Red); assay type: cell-based; conditions: selectivity index: CC50 value of HEK293 cell/IC50 value of Pf3D7; 100 used as CC50 where >100 µM
Method: (§1) The cultures were maintained under an atmosphere of 5% CO2, 5% O2, and 90% N2. Fresh complete medium was provided daily, and rapid-stained (Panotico) blood smears were examined.
(§2) To evaluate the effects of synthetic compounds on the intraerythrocytic development of P. falciparum, we analyzed parasitemia by flow cytometry with 0.3% initial parasitemia and 1% hematocrit in the assay. Plates were incubated with the compounds at concentrations ranging from 0.10 to 100 µM for 72 h. Dual staining with SYBR Green I (SG-I) (Invitrogen, Waltham, MA, USA) and MitoTracker Deep Red (MT-Red) (Invitrogen) were used to label nucleic acids and mitochondria, respectively. Approximately 10,000 cells were counted by an Accuri C6 (Becton Dickinson, San Jose, CA, USA) and analyzed by FlowJo 5 software. Parasitemia was determined from the analysis of dot plots (side scatter versus fluorescence).
(§3) We determined the susceptibility of P. falciparum to the indole compounds and investigated whether CQR parasites responded differently to the compounds. […] We determined the IC50 values for each compound by analyzing viable and non-viable parasites after compound treatment, represented in dot plots (Figure 1H).

[2] = tested on: Plasmodium falciparum Dd2 (chloroquine-resistant); assay: In vitro drug susceptibility assay, Dd2 strain (flow cytometry, SYBR Green I / MitoTracker Deep Red); assay type: cell-based; conditions: selectivity index: CC50 value of HEK293 cell/IC50 value of PfDd2; 100 used as CC50 where >100 µM
Method: as §1, §2, §3

Row | SMILES | SI 3D7 [1] | SI Dd2 [2]
1 | COC(=O)Cc1c(SCc2ccccc2)[nH]c2ccccc12 [Compound 14] | 1.14 | 0.63
2 | CCSc1[nH]c2ccccc2c1CC(=O)OC [Compound 17] | 1.06 | 0.75
3 | COC(=O)Cc1c(SCCCCO)[nH]c2ccccc12 [Compound 19] | 1.01 | 0.70
4 | COC(=O)Cc1c(SC(C)(C)C)[nH]c2ccccc12 [Compound 16] | 0.84 | 0.55
5 | COC(=O)Cc1c(Sc2ccccc2C(=O)O)[nH]c2ccccc12 [Compound 8] | >2.68 | > 2.31
6 | COC(=O)Cc1c(Sc2cccc(O)c2)[nH]c2ccccc12 [Compound 7] | 0.54 | 0.57
7 | COC(=O)Cc1c(Sc2ncccn2)[nH]c2ccccc12 [Compound 10] | >1.82 | > 2.29
8 | CCCCCCCCCCCCSc1[nH]c2cc(Cl)ccc2c1CC(=O)OC [Compound 21] | >5.24 | >5.93
9 | c1ccc(Cc2c(Sc3ccccc3)[nH]c3ccccc23)cc1 [Compound 26] | 2.58 | 0.97
10 | COC(=O)Cc1c(SCCCCCCCCCCC(=O)O)[nH]c2ccccc12 [Compound 20] | >3.47 | >11.47
11 | COC(=O)Cc1c(Sc2ccccc2)[nH]c2ccccc12 [Compound 3] | 1.44 | 0.84
12 | COC(=O)Cc1c(Sc2ccccc2)[nH]c2ccc(OC)cc12 [Compound 25] | 0.50 | 0.28
13 | COC(=O)Cc1c(SC23CC4CC(CC(C4)C2)C3)[nH]c2ccccc12 [Compound 18] | 1.24 | 1.07
